Data set [1] deals with HepG2 cells. Description: MTT assay. It is filed as cell-based, human. Background: Formazan colour is commonly taken as a measure of viable cells.
The subject of data set [2] is HepG2 cells. The experiment in a line: LDH release assay. It counts as cell-based, human.

Turning to `CCCCCCNc1cc(N)nc(N)n1` [PC206], the “S.I. (CC50 values/MIC against S. aureus Newbould)” value in the data set with HepG2 cells [1] was 4.2; in the data set with HepG2 cells [2] it was 3.9.

For the molecule `CCCCCNc1cc(N)nc(N)n1` [PC372], the figures for the “S.I. (CC50 values/MIC against S. aureus Newbould)” value with HepG2 cells [1] and in the data set on HepG2 cells [2] were 4.2 and 4.8, respectively.

On to `CCCCCCCCCCNc1cc(N)nc(N)n1` [PC383], for which the “S.I. (CC50 values/MIC against S. aureus Newbould)” value in the data set on HepG2 cells [1] turned out to be 0.8; in the data set on HepG2 cells [2], 0.4.

Source of the values: publication PMC10451377, “Rationally Designed Pyrimidine Compounds: Promising Novel Antibiotics for the Treatment of Staphylococcus aureus-Associated Bovine Mastitis” (Antibiotics, 2023).
